Reference: patent publication US20230143470A1 (THE SCRIPPS RESEARCH INSTITUTE, priority 2020, published 2023)

Assay: general procedure: Fmoc solid-phase peptide synthesis; 2-chlorotrityl chloride resin; HBTU, HObt and DIPEA (lactam cyclization)
Conditions: conjugation step

Work on P7-TAMRA probe yielded a conjugation yield of 95% yield.
